These results are taken from patent US9295730B2, “Conjugated molecules comprising a peptide derived from the CD4 receptor coupled to a polyanion for the treatment of AIDS” (Institut Pasteur, priority 2008, dated 2016).

A value given as a limit tells only on which side of the number the result lay.

Holding throughout (assay type): cell-based
Data set [1] has as its system X4-tropic HIV-1-LAI. Briefly: Antiviral assay, PHA-P-activated PBMC infected with HIV-1-LAI, RT activity in supernatants. As to conditions: Table 7, VIH-1-LAI; for EC50: read-out: ED50 (the source's name).
In data set [2] the test system is R5-tropic HIV-1/Ba-L. Put plainly: Antiviral assay, PHA-P-activated PBMC infected with HIV-1/Ba-L, RT activity in supernatants. Particulars: Table 7, VIH-1/Ba-L; for EC50: read-out: ED50 (the source's name).
Data set [3] can be described thus: Cytotoxicity, MTT assay on day 7. Particulars: human, uninfected PHA-P-activated PBMC, Table 7, read-out: Cytotoxicity CT50. The method, then: (§1) In parallel, cytotoxicity of the samples was evaluated in uninfected PHA-P-activated PBMC by a methyltetrazolium salt (MTT) assay on day 7. Experiments were performed in triplicate and 50, 70 and 90% effective doses and cytotoxic doses were calculated using SoftMaxPro software.

Data set [4] relates to uninfected PHA-P-activated PBMC. Briefly: Cytotoxicity, MTT assay on day 7. Particulars: Table 7. The procedure: as §1

As to `CSCC[C@H](N)C(=O)N[C@@H](CCC(=O)O)C(=O)N[C@@H](CC(=O)O)C(=O)N[C@@H](CC(C)C)C(=O)N[C@@H](CCC(=O)O)C(=O)N[C@@H](CCC(=O)O)C(=O)N[C@H](C(=O)N[C@@H](CC(C)C)C(=O)N[C@@H](Cc1ccccc1)C(=O)N[C@@H](CCC(=O)O)C(=O)N[C@@H](CCC(=O)O)C(=O)N[C@@H](Cc1ccccc1)C(=O)N[C@@H](CCC(=O)O)C(=O)N[C@@H](CC(N)=O)C(=O)N[C@@H](Cc1ccc(O)cc1)C(=O)N[C@@H](CO)C(=O)N[C@@H](Cc1ccc(O)cc1)C(=O)N[C@@H](CC(=O)O)C(=O)N[C@@H](CC(C)C)C(=O)N[C@@H](CC(=O)O)C(=O)N[C@@H](Cc1ccc(O)cc1)C(=O)N[C@@H](Cc1ccc(O)cc1)C(=O)N[C@@H](CO)C(=O)N[C@@H](CC(C)C)C(=O)N[C@@H](CCC(=O)O)C(=O)N[C@@H](CO)C(=O)N[C@@H](CSC1CC(=O)N(CCC(=O)NCCOCCOCCC(=O)NCCCC[C@@H]2NC(=O)[C@H](Cc3c[nH]cn3)NC(=O)[C@H](CC(C)C)NC(=O)[C@H](CC(N)=O)NC(=O)CCSSC[C@@H]3NC(=O)[C@H](CCCNC(=N)N)NC(=O)CNC(=O)[C@H](CC(C)C)NC(=O)[C@H](CC(C)C)NC(=O)CNC(=O)[C@H](CC(C)C)NC(=O)[C@H](CO)NC(=O)[C@H](CO)NC(=O)[C@@H]4CSSC[C@@H](C(=O)N[C@H](C(N)=O)C(C)C)NC(=O)[C@H](C)NC(=O)[C@H](CSSC[C@H](NC2=O)C(=O)N[C@@H](CCC(N)=O)C(=O)N[C@@H](CC(C)C)C(=O)N[C@@H](CCCNC(=N)N)C(=O)N4)NC(=O)[C@H](Cc2ccc(-c4ccccc4)cc2)NC(=O)[C@H](CO)NC(=O)CNC(=O)[C@H](C)NC3=O)C1=O)C(=O)O)[C@@H](C)O` (stereo partly drawn) [mCD4-GPR1, reference compound], in data set [1], the ED70 was 67 nM, the ED90 turned out to be 67.5 nM and the EC50 was found to be 66 nM. Besides, in data set [2], the ED70 was 231 nM, the ED90 came out at 309 nM and the EC50 was determined as 205 nM. Also, in data set [3], the CC50 at 168 h is greater than 1000 nM. Moreover, in data set [4], the “Cytotoxicity CT70” value is reported as greater than 1000 nM and the “Cytotoxicity CT90” value was greater than 1000 nM.
For the molecule `COc1ccc(CO[C@H]2[C@H](OCc3ccccc3)[C@@H](OS(=O)(=O)O)[C@H](O[C@H]3[C@H](OCc4ccccc4)[C@@H](NS(=O)(=O)O)[C@@H](O[C@H]4[C@H](OCc5ccccc5)[C@@H](OS(=O)(=O)O)[C@H](O[C@H]5[C@H](OCc6ccccc6)[C@@H](NS(=O)(=O)O)[C@H](OCCCCCNC(=O)CCSC6CC(=O)N(CCC(=O)NCCOCCOCCC(=O)NCCCC[C@@H]7NC(=O)[C@H](Cc8c[nH]cn8)NC(=O)[C@H](CC(C)C)NC(=O)[C@H](CC(N)=O)NC(=O)CCSSC[C@@H]8NC(=O)[C@H](CCCNC(=N)N)NC(=O)CNC(=O)[C@H](CC(C)C)NC(=O)[C@H](CC(C)C)NC(=O)CNC(=O)[C@H](CC(C)C)NC(=O)[C@H](CO)NC(=O)[C@H](CO)NC(=O)[C@@H]9CSSC[C@@H](C(=O)N[C@H](C(N)=O)C(C)C)NC(=O)[C@H](C)NC(=O)[C@H](CSSC[C@H](NC7=O)C(=O)N[C@@H](CCC(N)=O)C(=O)N[C@@H](CC(C)C)C(=O)N[C@@H](CCCNC(=N)N)C(=O)N9)NC(=O)[C@H](Cc7ccc(-c9ccccc9)cc7)NC(=O)[C@H](CO)NC(=O)CNC(=O)[C@H](C)NC8=O)C6=O)O[C@@H]5COS(=O)(=O)O)O[C@H]4C(=O)O)O[C@@H]3COS(=O)(=O)O)O[C@H]2C(=O)O)cc1` (stereo partly drawn) [mCD4-HS4Bz, mCD4-PEO2-Bzl-tetrasaccharide], in data set [1], the ED70 is listed as 84 nM, the ED90 is 86 nM and the EC50 was 83 nM. In data set [2], the ED70 was found to be 195 nM, the ED90 was determined as 211 nM and the EC50 is 184 nM. In addition, the CC50 at 168 h in data set [3] was greater than 1000 nM. In addition, in data set [4], the “Cytotoxicity CT70” value is greater than 1000 nM and the “Cytotoxicity CT90” value was greater than 1000 nM.
For `COc1ccc(CO[C@H]2[C@H](OCc3ccccc3)[C@@H](OS(=O)(=O)O)[C@H](O[C@H]3[C@H](OCc4ccccc4)[C@@H](NS(=O)(=O)O)[C@@H](O[C@H]4[C@H](OCc5ccccc5)[C@@H](OS(=O)(=O)O)[C@H](O[C@H]5[C@H](OCc6ccccc6)[C@@H](NS(=O)(=O)O)[C@@H](O[C@H]6[C@H](OCc7ccccc7)[C@@H](OS(=O)(=O)O)[C@H](O[C@H]7[C@H](OCc8ccccc8)[C@@H](NS(=O)(=O)O)[C@@H](O[C@H]8[C@H](OCc9ccccc9)[C@@H](OS(=O)(=O)O)[C@H](O[C@H]9[C@H](OCc%10ccccc%10)[C@@H](NS(=O)(=O)O)[C@@H](O[C@H]%10[C@H](OCc%11ccccc%11)[C@@H](OS(=O)(=O)O)[C@H](O[C@H]%11[C@H](OCc%12ccccc%12)[C@@H](NS(=O)(=O)O)[C@@H](O[C@H]%12[C@H](OCc%13ccccc%13)[C@@H](OS(=O)(=O)O)[C@H](O[C@H]%13[C@H](OCc%14ccccc%14)[C@@H](NS(=O)(=O)O)[C@H](OCCCCCNC(=O)CCSC%14CC(=O)N(CCC(=O)NCCOCCOCCC(=O)NCCCC[C@@H]%15NC(=O)[C@H](Cc%16c[nH]cn%16)NC(=O)[C@H](CC(C)C)NC(=O)[C@H](CC(N)=O)NC(=O)CCSSC[C@@H]%16NC(=O)[C@H](CCCNC(=N)N)NC(=O)CNC(=O)[C@H](CC(C)C)NC(=O)[C@H](CC(C)C)NC(=O)CNC(=O)[C@H](CC(C)C)NC(=O)[C@H](CO)NC(=O)[C@H](CO)NC(=O)[C@@H]%17CSSC[C@@H](C(=O)N[C@H](C(N)=O)C(C)C)NC(=O)[C@H](C)NC(=O)[C@H](CSSC[C@H](NC%15=O)C(=O)N[C@@H](CCC(N)=O)C(=O)N[C@@H](CC(C)C)C(=O)N[C@@H](CCCNC(=N)N)C(=O)N%17)NC(=O)[C@H](Cc%15ccc(-c%17ccccc%17)cc%15)NC(=O)[C@H](CO)NC(=O)CNC(=O)[C@H](C)NC%16=O)C%14=O)O[C@@H]%13COS(=O)(=O)O)O[C@H]%12C(=O)O)O[C@@H]%11COS(=O)(=O)O)O[C@H]%10C(=O)O)O[C@@H]9COS(=O)(=O)O)O[C@H]8C(=O)O)O[C@@H]7COS(=O)(=O)O)O[C@H]6C(=O)O)O[C@@H]5COS(=O)(=O)O)O[C@H]4C(=O)O)O[C@@H]3COS(=O)(=O)O)O[C@H]2C(=O)O)cc1` (stereo partly drawn) [mCD4-HS12Bz, mCD4-PEO2-Bzl-dodecasaccharide], in data set [1], the ED70 is recorded as greater than 1000 nM, the ED90 is listed as greater than 1000 nM and the EC50 was greater than 1000 nM. Besides, in data set [2], the ED70 is recorded as greater than 1000 nM, the ED90 is given as greater than 1000 nM and the EC50 was greater than 1000 nM. The CC50 at 168 h in data set [3] is greater than 1000 nM. Besides, in data set [4], the “Cytotoxicity CT70” value is on record as greater than 1000 nM and the “Cytotoxicity CT90” value was greater than 1000 nM.
